Anti-infective test results gathered from many reports (values: NIAID ChemDB through PubChem).

All rows: growth or infection tests; species: Candida albicans; measure: MIC90

Blank or dashed fields: not listed here.

structure | strain | read by | value
CC(C)C(CCC(C)C1CCC2C3CC=C4C[C@@H](O)CCC4(C)C3CCC12C)NS(=O)(=O)O | A11651 |  | 6.25 µg/mL
CCC(C)CC(C)CCCCCCCCC(=O)N[C@H]1C[C@@H](O)[C@H](NCCN)NC(=O)[C@@H]2[C@@H](O)CCN2C(=O)[C@H]([C@H](O)CCN)NC(=O)[C@H]([C@H](O)[C@@H](O)c2ccc(O)cc2)NC(=O)[C@@H]2C[C@@H](O)CN2C(=O)[C@H]([C@@H](C)O)NC1=O | 40 strains |  | 0.5 µg/mL
CCC(C)CC(C)CCCCCCCCC(=O)N[C@H]1C[C@@H](O)[C@@H](OCCN)NC(=O)[C@@H]2[C@@H](O)CCN2C(=O)[C@H]([C@@H](O)CCN)NC(=O)[C@H]([C@H](O)[C@@H](O)c2ccc(O)cc2)NC(=O)[C@@H]2C[C@@H](O)CN2C(=O)[C@H]([C@H](C)O)NC1=O | 50 isolates |  | 0.39 µg/mL
CCC(C)CC(C)CCCCCCCCC(=O)N[C@H]1C[C@@H](O)[C@H](NCCN)NC(=O)[C@@H]2[C@@H](O)CCN2C(=O)[C@H]([C@H](O)CCN)NC(=O)[C@H]([C@H](O)[C@@H](O)c2ccc(O)cc2)NC(=O)[C@@H]2C[C@@H](O)CN2C(=O)[C@H]([C@@H](C)O)NC1=O | 40 isolates |  | 0.5 µg/mL
O=c1cc(-c2ccccc2)c2ccc(Cl)cc2o1 | ATCC 90028 | broth dilution / absorbance | >100 µg/mL
CCC(C)n1ncn(-c2ccc(N3CCN(c4ccc(OC[C@H]5CO[C@](Cn6cncn6)(c6ccc(Cl)cc6Cl)O5)cc4)CC3)cc2)c1=O |  |  | 0.39 µg/mL
C[C@H]1[C@H](O)[C@@H](C)/C=C/C=C/C=C/C=C/C=C/C=C/C=C/[C@H](O[C@@H]2O[C@H](C)[C@@H](O)[C@H](N)[C@@H]2O)C[C@@H]2O[C@](O)(C[C@@H](O)C[C@@H](O)CC[C@H](O)[C@@H](O)C[C@@H](O)CC(=O)O[C@H]1C)C[C@H](O)[C@H]2C(=O)O | 32 strains |  | 2 µg/mL
C[C@H]1[C@H](O)[C@@H](C)/C=C/C=C/C=C/C=C/C=C/C=C/C=C/[C@H](O[C@@H]2O[C@H](C)[C@@H](O)[C@H](N)[C@@H]2O)C[C@@H]2O[C@](O)(C[C@@H](O)C[C@@H](O)CC[C@H](O)[C@@H](O)C[C@@H](O)CC(=O)O[C@H]1C)C[C@H](O)[C@H]2C(=O)O | 126 strains |  | 0.12 µg/mL
C[C@H]1[C@H](O)[C@@H](C)/C=C/C=C/C=C/C=C/C=C/C=C/C=C/[C@H](O[C@@H]2O[C@H](C)[C@@H](O)[C@H](N)[C@@H]2O)C[C@@H]2O[C@](O)(C[C@@H](O)C[C@@H](O)CC[C@H](O)[C@@H](O)C[C@@H](O)CC(=O)O[C@H]1C)C[C@H](O)[C@H]2C(=O)O | 50 isolates |  | 0.1 µg/mL
CC(C)C(N)CCC(C)C1CC[C@@]2(C)C3=C(CCC12C)C1(C)CC[C@H](O)C(C)(C)C1CC3 | A.10231 |  | >100 µg/mL
CCCCCOc1ccc(-c2ccc(-c3ccc(C(=O)N[C@H]4C[C@@H](O)[C@@H](O)NC(=O)[C@@H]5[C@@H](O)[C@@H](C)CN5C(=O)[C@H]([C@H](C)O)NC(=O)[C@H]([C@H](O)[C@@H](O)c5ccc(O)cc5)NC(=O)[C@@H]5C[C@@H](O)CN5C(=O)[C@H]([C@H](C)O)NC4=O)cc3)cc2)cc1 | 10 strains (fluconazole- itraconazole-susceptible) |  | 0.06 µg/mL
CCNC(CCC(C)C1CC[C@@]2(C)C3=C(CCC12C)C1(C)CC[C@H](OC(C)=O)C(C)(C)C1CC3)C(C)C | A.10231 |  | 100 µg/mL
CC(C)C1C[C@H]2C[C@]3(C=O)[C@@H]4CC[C@@H](C)[C@H]4C[C@@]2(CO[C@H]2CN(C4CC4)C[C@@H](C)O2)[C@]13C(=O)O | 16 isolates |  | 0.06 µg/mL
CCC(C)CC(C)CCCCCCCCC(=O)N[C@H]1C[C@@H](O)[C@H](NCCN)NC(=O)[C@@H]2[C@@H](O)CCN2C(=O)[C@H]([C@H](O)CCN)NC(=O)[C@H]([C@H](O)[C@@H](O)c2ccc(O)cc2)NC(=O)[C@@H]2C[C@@H](O)CN2C(=O)[C@H]([C@@H](C)O)NC1=O |  | broth dilution | 2 µg/mL
CC(C)C(CCC(C)C1CC[C@@]2(C)C3=C(CCC12C)C1(C)CC[C@H](O)C(C)(C)C1CC3)Sc1ccccc1 | A.10231 |  | 100 µg/mL
C=CCSS(=O)CC=C | Clinical Isolate 3109 | broth dilution | 3.13 µg/mL
C=C1CO[C@H]2[C@@H](C)OC(OC[C@@]34C[C@H]5[C@H](C)CC[C@@H]5[C@@]5(C=O)C[C@@H]3C=C(C(C)C)[C@@]45C(=O)O)C[C@@H]12 | 40 strains (fluconazole-resistant) |  | 0.12 µg/mL
OC(Cn1cncn1)(Cn1cncn1)c1ccc(F)cc1F |  |  | 0.78 µg/mL
CCC(C)n1ncn(-c2ccc(N3CCN(c4ccc(OC[C@@H]5CO[C@@](Cn6cncn6)(c6ccc(F)cc6F)O5)cc4)CC3)cc2)c1=O | 10 strains |  | 0.03 µg/mL
Nc1[nH]c(=O)ncc1F | 126 strains |  | 8 µg/mL
CCC(C)n1ncn(-c2ccc(N3CCN(c4ccc(OC[C@H]5CO[C@](Cn6cncn6)(c6ccc(Cl)cc6Cl)O5)cc4)CC3)cc2)c1=O | 166 isolates |  | 0.25 µg/mL
O[C@](Cn1cncn1)(Cn1cnc(/C=C/c2ccc(OCC(F)(F)C(F)F)cc2)n1)c1ccc(F)cc1F | 50 strains (fluconazole-susceptible) |  | 0.06 µg/mL
CCNC(CCC(C)C1CC[C@@]2(C)C3=C(CCC12C)C1(C)CC[C@H](O)C(C)(C)C1CC3)C(C)C | A.10231 |  | 25 µg/mL
C=C=CCN1C[C@H](OC[C@@]23C[C@@H]4[C@H](C)CC[C@H]4[C@@]4(C=O)C[C@@H]2CC(C(C)C)[C@@]34C(=O)O)O[C@H](C)C1 | 16 isolates/fluconazole resistant |  | 0.06 µg/mL
Nc1[nH]c(=O)ncc1F | 166 isolates |  | 4 µg/mL
Nc1[nH]c(=O)ncc1F | 50 isolates |  | 0.63 µg/mL
C=CCN1C[C@H](OC[C@@]23C[C@@H]4[C@H](C)CC[C@H]4[C@@]4(C=O)C[C@@H]2CC(C(C)C)[C@@]34C(=O)O)O[C@H](C)C1 | 16 isolates |  | 0.03 µg/mL
C=CCc1ccc(OC)c(OC)c1 | 2779 | turbidity | 340 µg/mL
O=c1cc(-c2ccccc2)c2cc(Cl)ccc2o1 | ATCC 90028 | broth dilution / absorbance | >100 µg/mL
CC[C@@H]([C@H](C)O)n1ncn(-c2ccc(N3CCN(c4ccc(OC[C@@H]5CO[C@@](Cn6cncn6)(c6ccc(F)cc6F)C5)cc4)CC3)cc2)c1=O |  |  | 0.03–0.06 µg/mL

3 of the rows above, restated:

structure,strain,read by,value
Nc1[nH]c(=O)ncc1F,166 isolates,,4 µg/mL
CCNC(CCC(C)C1CC[C@@]2(C)C3=C(CCC12C)C1(C)CC[C@H](OC(C)=O)C(C)(C)C1CC3)C(C)C,A.10231,,100 µg/mL
C[C@H]1[C@H](O)[C@@H](C)/C=C/C=C/C=C/C=C/C=C/C=C/C=C/[C@H](O[C@@H]2O[C@H](C)[C@@H](O)[C@H](N)[C@@H]2O)C[C@@H]2O[C@](O)(C[C@@H](O)C[C@@H](O)CC[C@H](O)[C@@H](O)C[C@@H](O)CC(=O)O[C@H]1C)C[C@H](O)[C@H]2C(=O)O,126 strains,,0.12 µg/mL

Two numbers with a dash give a range or band. Rows are shuffled and stem from different studies. MIC50, MIC90 and the like: level of inhibition, or share of isolates inhibited.